The record followed here is paper PMC5352689.

Chains of the proteins cited; added tags and fusions are not shown. Residues count along the entry.
UniProt P0ACK0, 2-210: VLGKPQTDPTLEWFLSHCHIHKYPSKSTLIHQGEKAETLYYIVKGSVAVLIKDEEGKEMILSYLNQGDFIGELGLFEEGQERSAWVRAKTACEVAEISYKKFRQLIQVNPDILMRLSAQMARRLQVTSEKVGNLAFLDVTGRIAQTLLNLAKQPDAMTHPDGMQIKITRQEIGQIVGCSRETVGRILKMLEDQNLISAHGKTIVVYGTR

The target in one data set is His6-CRP (CRP-cAMP) (UniProt P0ACK0). Kind of data set: DNase I footprinting. The note with it: 200 uM cAMP, 20 pmol protein, 0.45 pmol DNA in 50 ul, 25-bp protection, 20 mM Tris pH 7.5, 50 mM KCl, 1 mM DTT, 10% glycerol, 20 min at room temperature, recombinant protein, residues 2-210, protein details: N-terminal His6, label: 5' 6-FAM (forward strand), probe letters rebuilt from the primers and the genome.

The next data set deals with T1, His6-D154AFNR (UniProt P0A9E7).
T1 sequence (looked up, limits assumed): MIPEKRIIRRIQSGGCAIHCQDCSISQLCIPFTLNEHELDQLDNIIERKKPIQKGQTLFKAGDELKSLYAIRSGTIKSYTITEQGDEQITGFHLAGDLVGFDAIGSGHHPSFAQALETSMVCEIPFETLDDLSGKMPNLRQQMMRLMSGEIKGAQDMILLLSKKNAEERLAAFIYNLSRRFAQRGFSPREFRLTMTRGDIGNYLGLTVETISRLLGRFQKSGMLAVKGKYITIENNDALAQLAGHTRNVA
Kind of data set: DNase I footprinting. The note with it: 200 uM cAMP in buffer, 20 pmol protein, 0.45 pmol DNA in 50 ul, 70-bp protection, 20 mM Tris pH 7.5, 50 mM KCl, 1 mM DTT, 10% glycerol, 20 min at room temperature, recombinant protein, protein details: N-terminal His6, label: 5' 6-FAM (forward strand), probe letters rebuilt from the primers and the genome.

For some assays here: Construct, isoform or probe ends are uncertain for at least one entry. For some assays here: Protein sequences can lack the tags named with them.

On to “TCACTTGATTGCGAGTCGCGAGTTTTCATTGTTATCCCTCTGAAGTTCGTTTTTTACCATTTAGCCATAGTAAAAACATGAATTGTTTGATTTCGCGCATATTCGCTCATAATTCGAAAGTGAAACGTGATTTCATGCGTCATTCTGAACATTTTGTAAATCTTATTTAATAATGTGTGCGGCAATTCACATTTAATTTCTGAATGTTTTCTTAACATCGCGGCAACTAAAGAAACGGCAGGTTCTCCCACTGAATCAGTCTGTTAATCATAAATAAGACCACGGGCCACGGAGGCTTTCAAAGCTTCGC (double strand) [glpT footprint probe]”, for which the binding result with His6-CRP (CRP-cAMP) and in the data set with His6-D154AFNR was “binds” in each case.
